In patent US6800101B2, “Deactivatable biocides for hydrocarbonaceous products” (priority 2001, dated 2004):

System: alkane degrading culture
Test: Test for rapidly biodegradable hydrocarbonaceous products (visual growth after inoculation)
Assay type: cell-based
Conditions: 90 ml media, 10 ml product, 10 μl inoculum

CCCCCCCCCCCCCCCC [n-C16]
growth (at 2 days): no growth | growth (at 6 days): growth
